Consider two compounds from patent publication US10118927B2, “Substituted piperidin-4-amino-type compounds and uses thereof” (dated 2018).

Amino acid sequences for entries named in this document (tags omitted). A change or cut given only in a name is not applied to a line headed by its entry.
UniProt P41146: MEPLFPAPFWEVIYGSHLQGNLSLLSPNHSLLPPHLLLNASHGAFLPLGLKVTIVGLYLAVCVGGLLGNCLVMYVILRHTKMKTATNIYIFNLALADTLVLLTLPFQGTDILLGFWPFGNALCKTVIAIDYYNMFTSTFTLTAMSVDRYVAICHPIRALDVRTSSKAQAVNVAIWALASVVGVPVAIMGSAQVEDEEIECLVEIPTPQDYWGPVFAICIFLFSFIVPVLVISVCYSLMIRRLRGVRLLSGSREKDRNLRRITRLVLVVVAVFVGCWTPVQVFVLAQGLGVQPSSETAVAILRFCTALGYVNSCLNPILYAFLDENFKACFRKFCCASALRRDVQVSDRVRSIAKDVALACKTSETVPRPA

Where only a bound is given, the exact number is not on record here.

The target of the assay is human opioid receptor-like receptor (ORL-1) (Homo sapiens, UniProt P41146). Kind of assay: In vitro ORL-1 receptor binding assay ([3H]-nociceptin displacement). The settings on record: read-out: Ki [Average ± Std Deviation] ORL-1; membranes from recombinant HEK-293 cells; 0.1 nM [3H]-nociceptin.

For `O=C(O)CCN(C(=O)c1ccccc1)C1CCN(C2CCCCCCC2)CC1`, the Ki (in general, a measure of affinity in units of concentration, obtained from inhibition or displacement) was greater than 20 µM.

With `O=C(O)CC(=O)N(Cc1ccccc1)C1CCN(C2CCCCCCC2)CC1`, the inhibition constant (Ki) was greater than 20 µM.
